Anti-infective test results gathered from many reports (values: NIAID ChemDB through PubChem).

Shared fields: whole-cell or culture tests; species: HIV-1

Inhibition is in % at the dose shown (toxicity tests: loss of growth or viability). Neighbouring rows are from separate reports. ECn is the concentration giving n% inhibition of infection, replication or growth. An empty or dashed field is not shown. Fold resistance: result on the changed form divided by that on wild type.

structure,dose,read-out,setting,cell line,read by,strain or isolate,mutations,result
CC(C)Nc1cccnc1N1CCN(C(=O)c2cc3cc(N=CN(C)C)ccc3[nH]2)CC1,1 µM,inhibition,-,PBMC,MTT,Seropositive clinical isolate B,-,100%
CC(C)(C)NC(=O)[C@@H]1C[C@@H]2CCCC[C@@H]2CN1C[C@@H](O)[C@H](Cc1ccccc1)NC(=O)[C@H](CC(N)=O)NC(=O)c1ccc2ccccc2n1,-,EC95,-,MT-4,p24,NL4-3,PR-M46I L63P V82T I84V,0.2 µM
Cn1c2ccccc2c2c1cc(C#N)c(=O)n2-c1ccc([N+](=O)[O-])cc1,-,fold resistance,-,HeLa,luciferase,NRTI resistant,RT-M184V,3
Nc1ccn([C@@H]2CS[C@H](CO)O2)c(=O)n1,-,EC90,-,Primary T lymphocytes,p24 / ELISA,-,A62V V75I F77L F116Y Q151M,2.7 µM
CC(=O)c1ccc(C)cc1NC(C(N)=O)c1c(Cl)cccc1Cl,-,fold resistance,-,CEM + CEM-SS,XTT,Dihydrocostatolide-resistant (RT-L100I),RT-L100I,0.667
CC(C)=CCN1Cc2cc(Cl)cc3[nH]c(=S)n(c23)C[C@@H]1C,-,EC95,-,MT-4,-,-,RT-D67N K70R T215Y K219Q L100I,>3 µM
CO[P@](=O)(c1cc(C)cc(/C=C/C#N)c1)c1c(C(N)=O)[nH]c2ccc(Cl)c(F)c12,-,EC50,-,MT-4,-,IIIB,-,0.001 µM
Nc1nc(=O)n([C@@H]2CS[C@H](CO)O2)cc1F,-,EC90,-,Primary T lymphocytes,p24 / ELISA,-,4xAZT,1.2 µM
CCCCCCCCCCCCCCCCOP(=O)(OC[C@H]1OC(O)[C@H](O)[C@@H](O)[C@@H]1O)OC[C@H]1O[C@@H](n2cc(C)c(=O)[nH]c2=O)C[C@@H]1N=[N+]=[N-],1 µM,inhibition,15 d,CEM,RT activity,LAV-Bru,-,96%
N#Cc1cc2[nH]c3ccccc3c2n(-c2ccc([N+](=O)[O-])cc2)c1=O,-,fold resistance,-,HeLa,luciferase,Recombinant,RT-M41L S68N G112S M184V,10.3
CC(C)CN(C[C@@H](O)[C@H](Cc1ccccc1)NC(=O)O[C@H]1CCOC1)S(=O)(=O)c1ccc(N)cc1,-,EC90,-,MT-4,p24,NL4-3,PR-D30N N88D,0.04 µM
O=S(=O)(c1ccccc1)c1ccccc1,-,EC50,-,CEM + CEM-SS,XTT,Costatolide-resistant (RT L100I T139I),RT-L100I T139I,85 µM
CC[C@H](C)[C@H](C(=O)O)N1C[C@H](CN2CCC(c3cc(Cc4ccc5ccccc5c4)nn3CC)CC2)[C@@H](c2cccc(F)c2)C1,-,EC90,50% human serum,HeLa,β-galactosidase,BaL,-,0.3 µM
CC(C)CN(C[C@@H](O)[C@H](Cc1ccccc1)NC(=O)[C@H](CC(N)=O)NC(=O)c1ccc2ccccc2n1)C(=O)NC(C)(C)C,-,EC95,-,MT-4,p24,NL4-3,PR-M46I V82T I84V,0.8 µM
CCc1c(C(=O)c2cc(C)cc(C)c2)n(CC2CC=CC2)c(=O)[nH]c1=O,-,EC50,-,CEM + CEM-SS,cytopathic effect / XTT,NL4-3,RT-L74V,0.0002 µM
c1cc(CN2CCCNCCNCCCNCC2)ccc1CN1CCCNCCNCCCNCC1,0.1 µM,inhibition,-,PBMC,p24,92US714 CLADE B R5,-,0%
CCn1nc(Cc2ccc(OC(F)F)cc2)cc1C1CCN(C[C@H]2CN([C@@H](C(=O)O)C(C)C)C[C@@H]2c2cccc(F)c2)CC1,-,EC90,50% human serum,HeLa,β-galactosidase,BaL,-,0.1 µM
C[C@H](Cn1cnc2c(N)ncnc21)OCP(=O)(O)O,-,fold resistance,-,HeLa,luciferase,Recombinant,RT-M41L V118I M184V,1
Cc1cn([C@H]2C[C@H](N=[N+]=[N-])[C@@H](COP(=O)(O)OC[C@H]3OC(O)[C@H](O)[C@@H](O)[C@@H]3O)O2)c(=O)[nH]c1=O,0.2 µM,inhibition,22 d,CEM,RT activity,LAV-Bru,-,56%
CC(C)=CCN1Cc2cc(Cl)cc3[nH]c(=S)n(c23)C[C@@H]1C,-,fold resistance,-,HT4 + HT4 LacZ-1,plaque count,RTMC (RT-Y181C),RT-D67N K70R Y181C T215Y K219Q,22.7
O=C1N(Cc2ccc(CO)cc2)[C@H](Cc2ccccc2)[C@H](O)[C@@H](O)[C@@H](Cc2ccccc2)N1Cc1ccc(CO)cc1,0.05 µM,inhibition,-,PBMC,p24,Clinical isolate N,-,90%
CC[C@H](C)[C@H](C(=O)O)N1C[C@H](CN2CCC(c3cc(Cc4ccc(OC(F)F)cc4)nn3CC)CC2)[C@@H](c2cccc(F)c2)C1,-,EC90,50% human serum,HeLa,β-galactosidase,BaL,-,0.011 µM
C#C[C@]1(CO)O[C@@H](n2cnc3c(N)nc(F)nc32)C[C@@H]1O,-,EC50,-,MT4-GFP,fluorescence,-,-,0.00106 µM
CCn1nc(Cc2ccc(OC)cc2)cc1C1CCN(C[C@H]2CN([C@@H](C(=O)O)C3CCCCC3)C[C@@H]2c2cccc(F)c2)CC1,-,EC90,50% human serum,HeLa,β-galactosidase,BaL,-,0.033 µM
O=C(O)P(=O)(O)O,256 µM,inhibition,6 d,PBL,RT activity,IIIB,-,100%
CC[C@H](C)[C@H](C(=O)O)N1C[C@H](CN2CCC(c3cc(Cc4cccc(CN)c4)nn3CC)CC2)[C@@H](c2cccc(F)c2)C1,-,EC90,50% human serum,HeLa,β-galactosidase,BaL,-,0.011 µM
Cc1cn([C@H]2C[C@H](N=[N+]=[N-])[C@@H](CO)O2)c(=O)[nH]c1=O,-,fold resistance,-,CEM + CEM-SS,XTT,UC38-resistant (RT Y181C),RT-Y181C,0.2
Cc1cn([C@H]2C[C@H](N=[N+]=[N-])[C@@H](COP(=O)(O)OC[C@H]3OC(O)[C@@H](O)[C@@H](O)[C@@H]3O)O2)c(=O)[nH]c1=O,5 µM,inhibition,7 d,PBL,RT activity,LAV-Bru,-,94%
Cc1cc(S(N)(=O)=O)ccc1NC(=O)COc1ccc(Cl)cc1C(=O)c1cc(Cl)cc(C#N)c1,-,fold resistance,-,MAGI,β-galactosidase,NNRTI-resistant (RT V108I Y181C),RT-V108I Y181C,1.7
CCn1nc(Cc2cc(C(F)(F)F)cc(C(F)(F)F)c2)cc1C1CCN(C[C@H]2CN([C@@H](C(=O)O)C(C)(C)C)C[C@@H]2c2cccc(F)c2)CC1,-,EC90,-,HeLa,β-galactosidase,BaL,-,0.011 µM
Cc1cn([C@H]2C=C[C@@H](CO)O2)c(=O)[nH]c1=O,-,EC90,-,Primary T lymphocytes,p24 / ELISA,-,4xAZT,53.2 µM
Cc1ccnc2c1NC(=O)c1cccnc1N2C1CC1,-,fold resistance,-,CEM + CEM-SS,XTT,Oxathiin carboxanilide-resistant RT L100I,RT-L100I,10
CCOc1cccc(Cc2cc(C3CCN(C[C@H]4CN([C@@H](C(=O)O)[C@H](C)CC)C[C@@H]4c4cccc(F)c4)CC3)n(CC)n2)c1,-,EC90,50% human serum,HeLa,β-galactosidase,BaL,-,>0.3 µM

For reference, 3 entries again:

structure,dose,read-out,setting,cell line,read by,strain or isolate,mutations,result
CC(C)(C)NC(=O)[C@@H]1C[C@@H]2CCCC[C@@H]2CN1C[C@@H](O)[C@H](Cc1ccccc1)NC(=O)[C@H](CC(N)=O)NC(=O)c1ccc2ccccc2n1,-,EC95,-,MT-4,p24,NL4-3,PR-M46I L63P V82T I84V,0.2 µM
CC(C)CN(C[C@@H](O)[C@H](Cc1ccccc1)NC(=O)[C@H](CC(N)=O)NC(=O)c1ccc2ccccc2n1)C(=O)NC(C)(C)C,-,EC95,-,MT-4,p24,NL4-3,PR-M46I V82T I84V,0.8 µM
CC(C)Nc1cccnc1N1CCN(C(=O)c2cc3cc(N=CN(C)C)ccc3[nH]2)CC1,1 µM,inhibition,-,PBMC,MTT,Seropositive clinical isolate B,-,100%